# According to ChEMBL document CHEMBL1128211, “3D-quantitative structure-activity relationships of human immunodeficiency virus type-1 proteinase inhibitors: comparative molecular field analysis of 2-heterosubstituted statine derivatives-implications for the design of novel inhibitors” (J Med Chem, 1995):
# Target: Human immunodeficiency virus type 1 protease (Human immunodeficiency virus 1, UniProt Q72874)
# Experiment: Inhibitory activity was determined against HIV type 1 protease
smiles,measurement,value
NC(=O)C[C@H](NC(=O)COc1ccccc1)C(=O)N[C@@H](Cc1ccccc1)[C@@H](O)[C@@H](NCc1ccccc1)C(=O)NCc1ccccc1,pKi,6.07

# pKi: −log10 of the molar value.
